Anti-infective test results gathered from many reports (values: NIAID ChemDB through PubChem).

Common to all: tests on isolated targets; species: HIV-1; target: Protease; endpoint: IC50

An empty or dashed field is not shown. ICn: concentration for n% inhibition. Rows are shuffled and stem from different studies.

structure	strain or isolate	mutations	method	value
Cc1ccnc(C)c1OCC(=O)N[C@@H](Cc1ccccc1)[C@@H](O)C[C@H](Cc1ccccc1)NC(=O)[C@H](C(C)C)N1CCCNC1=O				<0.0005 µM
COc1c(O)cc([C@H]2Oc3cc(O)cc(O)c3C[C@@H]2O)cc1O[C@@H]1O[C@H](CO)[C@@H](O)[C@H](O)[C@H]1O	IIIB		HPLC	<100 µg/mL
CC(=O)N[C@H](Cc1ccc(F)cc1)C(=O)N[C@H](C(=O)N[C@@H](Cc1ccccc1)[C@@H](O)C(=O)N[C@H]1Cc2ccc(cc2)OCCCNC(=O)[C@H](C(C)C)NC1=O)C(C)C			fluorescence	0.009 µM
O=C(c1ccco1)N1C[C@@H](O)[C@@H](Cc2ccccc2)N(Cc2ccc(O)cc2)C(=O)N1Cc1ccc(O)cc1			fluorescence	0.0015 µM
CC(C)c1nc(CN(C)C(=O)N[C@H](C(=O)NN(Cc2ccc(O)cc2)C[C@H](O)[C@H](Cc2ccccc2)NC(=O)OCc2cncs2)C(C)C)cs1			fluorescence	<0.0005 µM
C=C(C)C(O)Cc1c(O)c(CC=C(C)C)c(O)c2c(=O)c(-c3ccc(O)cc3O)coc12			HPLC	2.5 µM
O=C(COc1ccccc1)N[C@@H](Cc1ccccc1)[C@H](O)[C@@H](O)[C@H](Cc1ccccc1)NC(=O)[C@@H](NC(=O)c1cc(=O)c2ccccc2[nH]1)C1CCCS1			substrate cleavage	0.009 µM
CC(C)[C@H](N)C(=O)N[C@H](C(=O)N[C@@H](Cc1ccccc1)[C@H](O)C(=O)N(CC(=O)N[C@H](C(=O)N[C@H](C(N)=O)C(C)C)C(C)C)Cc1ccccc1)C(C)C				<1000 µM
COc1ccc2c(O)c(Oc3ccccc3)c(=O)oc2c1				61 µM
COC(=O)[C@@H]1CCCN1C(=O)C(=O)C(Cc1ccccc1)NC(=O)OC(C)(C)C			substrate cleavage	7 µM
CC(C)c1nc(CN(C)C(=O)N[C@H](C(=O)NN(Cc2ccccc2)C[C@H](O)[C@H](Cc2ccccc2)NC(=O)OCc2ccccc2)C(C)C)cs1			fluorescence	<0.0005 µM
COc1ccc2c(O)c(S(=O)(=O)c3ccc(C)cc3)c(=O)oc2c1				>50 µM
Cc1cc(F)cc(C)c1OCC(=O)N[C@@H](Cc1ccccc1)[C@@H](O)C[C@H](Cc1ccccc1)NC(=O)[C@H](C(C)C)N1CCCNC1=O				<0.0005 µM
O=c1oc2cccc(O)c2c(O)c1-c1ccccc1				31 µM
CC(C)c1nc(CN(C)C(=O)N[C@H](C(=O)NN(Cc2ccccc2)C[C@H](O)[C@H](Cc2ccccc2)NC(=O)OCc2ccno2)C(C)C)co1			fluorescence	<0.0005 µM
CC(=O)N[C@@H](Cc1ccccc1)C(=O)N[C@@H](CCC(=O)O)C(=O)N[C@@H](Cc1ccccc1)[C@H](O)[C@@H](O)[C@H](Cc1ccccc1)NC(=O)[C@@H](NC(C)=O)C(C)C			substrate cleavage	0.13 µM
CC(C)[C@H](NC(=O)[C@H](CCCN=C(N)N)NC(=O)N[C@@H](Cc1ccccc1)C(=O)O)C(=O)N[C@H](C=O)Cc1ccccc1			HPLC	1.3 µM
CC(=O)N[C@@H](Cc1cnc[nH]1)C(=O)N[C@H](C(=O)N[C@@H](Cc1ccccc1)[C@@H](O)C(=O)N[C@H]1Cc2ccc(cc2)OCCCNC(=O)[C@H](C(C)C)NC1=O)C(C)C			fluorescence	0.018 µM
CC[C@H](C)[C@H](NC(=O)[C@@H]1CCCN1C(=O)[C@H](O)[C@H](Cc1ccccc1)NC(=O)[C@H](CO)NC(=O)Cc1ccccc1)C(=O)N[C@H](C(N)=O)C(C)C				~5 µM
CC(C)[C@H](NC(=O)c1cc(=O)c2ccccc2o1)C(=O)N[C@@H](Cc1ccccc1)[C@H](O)[C@@H](O)[C@H](Cc1ccccc1)NC(=O)[C@@H](NC(=O)[C@H](Cc1c[nH]c2ccccc12)NC(=O)c1cc(=O)c2ccccc2o1)C(C)C			substrate cleavage	0.005 µM
COc1ccc2c(O)c(Cc3ccccc3)c(=O)oc2c1				2.4 µM
CCCCCCCCCCCCCc1cc(O)cc(O)c1			HPLC	5.8 µM
CC1(C)C=Cc2c(cc3occ(-c4ccc(O)cc4)c(=O)c3c2O)O1			HPLC	30.1 µM
O=C1O[C@H]2[C@@H]3OC(=O)c4cc(O)c(O)c(O)c4-c4c(cc(O)c(O)c4O)C(=O)OC[C@H]2O[C@@H](OC(=O)c2cc(O)c(O)c(O)c2)[C@@H]3OC(=O)c2cc(O)c(O)c3c2[C@@H]2C1=CC(=O)[C@](O)(O3)C2(O)O			absorbance	6.28 µg/mL
CC(C)[C@@H](C(=O)N[C@@H](Cc1ccccc1)C[C@H](O)[C@H](Cc1ccccc1)NC(=O)COc1ccccc1)N1CCCNC1=O				<0.0005 µM
CC(C)CN(C[C@@H](O)[C@H](Cc1ccccc1)NC(=O)CN(CC(N)=O)[C@H]1CCOC1)S(=O)(=O)c1ccc2c(c1)OCO2			substrate cleavage / FRET	0.0099 µM
O=C(NC(CO)NC(=O)[C@@H]1Cc2ccccc2CN1C(=O)OCc1ccccc1)[C@@H]1Cc2ccccc2CN1C(=O)OCc1ccccc1			substrate cleavage	0.85 µM
Cc1cccc(C)c1SCC(=O)N[C@@H](Cc1ccccc1)[C@@H](O)C[C@H](Cc1ccccc1)NC(=O)[C@H](C(C)C)N1CCCNC1=O				<0.0005 µM
O=C(N[C@@H](Cc1ccccc1)[C@@H](O)[C@H](O)[C@H](Cc1ccccc1)NC(=O)c1cc(=O)c2ccccc2o1)c1cc(=O)c2ccccc2o1			substrate cleavage	90 µM
O=C(N[C@@H](CC1CCCCC1)C(=O)NC(CO)NC(=O)[C@H](CC1CCCCC1)NC(=O)OCc1ccccc1)OCc1ccccc1			substrate cleavage	0.67 µM
CC(C)(C)NC(=O)[C@@H]1C[C@@H](O)CCN1C(=O)[C@@H](O)[C@H](Cc1ccccc1)NC(=O)[C@H](CC(N)=O)NC(=O)OCc1ccccc1				<5 µM
COc1cc(O)cc(O)c1C(=O)/C=C/c1ccccc1			HPLC	>100 µM
O=C(CO)N1C[C@@H](O)[C@@H](Cc2ccccc2)N(Cc2ccc(O)cc2)C(=O)N1Cc1ccc(O)cc1			fluorescence	0.0066 µM
CC1(C)C=Cc2c(cc(O)c3c(=O)c(-c4ccc(O)cc4)coc23)O1			HPLC	18.2 µM
O=C(N[C@@H](Cc1ccccc1)[C@@H](O)[C@H](O)[C@H](Cc1ccccc1)NC(=O)c1cc(=O)c2ccccc2[nH]1)c1cc(=O)c2ccccc2[nH]1			substrate cleavage	10 µM
COc1ccc(CN(C[C@H](O)[C@H](Cc2ccccc2)NC(=O)[C@@H](NC(=O)OCc2ccccn2)C(C)C)NC(=O)OC(C)(C)C)cc1			fluorescence	~0.0005 µM
O=C(NC(CO)NC(=O)[C@H](CC1CCCCC1)NC(=O)OCc1ccccc1)OCc1ccccc1			substrate cleavage	>5 µM
CC[C@@H](C)[C@H](NC(=O)CN(CC1CCCCC1)C(=O)[C@@H](O)[C@H](Cc1ccccc1)NC(=O)[C@H](CC(N)=O)NC(=O)OC(C)(C)C)C(=O)NCC1CCCCC1				>1000 µM
COc1cc(O)cc(O)c1C(=O)CCc1ccccc1			HPLC	>100 µM
CC(C)C[C@H](NC(=O)[C@@H](N)COCc1ccccc1)C(=O)N[C@@H](CC(N)=O)C(=O)N[C@@H](Cc1ccccc1)C(=O)Cc1ccccc1			substrate cleavage	45 µM
Cc1ccccc1OCC(=O)N[C@@H](Cc1ccccc1)[C@@H](O)C[C@H](Cc1ccccc1)NC(=O)[C@H](C(C)C)N1CCCNC1=O				<0.0005 µM
CC(C)[C@H](NC(=O)OCc1ccccn1)C(=O)N[C@@H](Cc1ccccc1)[C@@H](O)CN(Cc1ccccc1)NC(=O)OCc1cccnc1			fluorescence	<0.0005 µM
O=c1oc2cc(OCc3ccccc3)ccc2c(O)c1-c1ccccc1				7 µM
CC(C)c1nc(CN(C)C(=O)N[C@H](C(=O)NN(Cc2ccccc2)C[C@H](O)[C@H](Cc2ccccc2)NC(=O)OCc2cncs2)C(C)C)cs1			fluorescence	<0.0005 µM
CCCCCCCCCCCCCc1cccc(O)c1			HPLC	>100 µM
CC(C)=CCc1c2c(c(O)c3c(=O)c(-c4ccc(O)cc4O)coc13)C=CC(C)(C)O2			HPLC	3.5 µM
CC(C)[C@H](NC(=O)[C@H](C)NC(=O)OCc1ccccc1)C(=O)N[C@@H](Cc1ccccc1)[C@@H](O)[C@H](O)[C@H](Cc1ccccc1)NC(=O)[C@@H](NC(=O)[C@H](C)NC(=O)OCc1ccccc1)C(C)C		PR-V82F		0.0149 µM
CC[C@@H](C)[C@H](NC(=O)[C@@H]1CCCN1C(=O)[C@@H](O)[C@H](CC1CCCCC1)NC(=O)[C@H](CSC)NC(=O)CCc1ccccc1)C(=O)N[C@H](C(N)=O)C(C)C				>5 µM
OC[C@H]1O[C@@H](Oc2cc(O)cc(O)c2)[C@H](O)[C@@H](O)[C@@H]1O	IIIB		HPLC	<100 µg/mL
OC[C@H]1O[C@@H](Oc2cc(O)c(O)c(/C=C/c3ccc(O)cc3)c2)[C@H](O)[C@@H](O)[C@@H]1O			FRET	126 µM
CC(=O)N[C@@H](Cc1cn(C(c2ccccc2)(c2ccccc2)c2ccccc2)cn1)C(=O)N[C@H](C(=O)N[C@@H](Cc1ccccc1)[C@@H](O)C(=O)N[C@H]1Cc2ccc(cc2)OCCCNC(=O)[C@H](C(C)C)NC1=O)C(C)C			fluorescence	0.017 µM
CC(C)(C)OC(=O)N[C@H](CN[C@@H](CC1CC1)C(=O)N[C@@H](CCC(=O)O)C(=O)NCCCc1ccc(F)cc1)Cc1ccccc1			HPLC	0.008 µM
CC[C@@H](C)[C@H](NC(=O)[C@@H]1CCCN1C(=O)[C@@H](O)[C@H](CC1CCCCC1)NC(=O)[C@H](CC(N)=O)NC(=O)c1ccco1)C(=O)N[C@H](C(N)=O)C(C)C				<5 µM
Cc1cc(N)cc(C)c1OCC(=O)N[C@@H](Cc1ccccc1)[C@@H](O)C[C@H](Cc1ccccc1)NC(=O)[C@H](C(C)C)N1CCCNC1=O				<0.0005 µM
COc1c(O)cc([C@H]2Oc3cc(O)cc(O[C@@H]4O[C@H](CO)[C@@H](O)[C@H](O)[C@H]4O)c3C[C@H]2O)cc1O	IIIB		HPLC	<100 µg/mL
O=C(NC(CO)NC(=O)[C@@H]1Cc2ccccc2CN1C(=O)OCC1c2ccccc2-c2ccccc21)[C@@H]1Cc2ccccc2CN1C(=O)OCC1c2ccccc2-c2ccccc21			substrate cleavage	0.385 µM
CC[C@@H](C)[C@H](NC(=O)[C@@H]1CCCN1C(=O)[C@@H](O)[C@H](CC1CCCCC1)NC(=O)[C@H](CC(N)=O)NC(=O)[C@H]1Cc2ccccc2CN1)C(=O)N[C@H](C(N)=O)C(C)C				<5 µM
CC(C)[C@@H]1NC(=O)[C@@H](NC(=O)OCc2ccccc2)CCC(=O)Nc2cccc(c2)C[C@@H]([C@@H](O)[C@H](O)[C@@H]2Cc3cccc(c3)NC(=O)CC[C@H](NC(=O)OCc3ccccc3)C(=O)N[C@@H](C(C)C)C(=O)N2)NC1=O			fluorescence	0.389 µM
COc1cc(O)cc2c1C[C@@H](O)[C@@H](c1cc(O)c(OC)c(O)c1)O2	IIIB		HPLC	>100 µg/mL

Repeating the final 8 entries:

structure	strain or isolate	mutations	method	value
CC(C)(C)OC(=O)N[C@H](CN[C@@H](CC1CC1)C(=O)N[C@@H](CCC(=O)O)C(=O)NCCCc1ccc(F)cc1)Cc1ccccc1			HPLC	0.008 µM
CC[C@@H](C)[C@H](NC(=O)[C@@H]1CCCN1C(=O)[C@@H](O)[C@H](CC1CCCCC1)NC(=O)[C@H](CC(N)=O)NC(=O)c1ccco1)C(=O)N[C@H](C(N)=O)C(C)C				<5 µM
Cc1cc(N)cc(C)c1OCC(=O)N[C@@H](Cc1ccccc1)[C@@H](O)C[C@H](Cc1ccccc1)NC(=O)[C@H](C(C)C)N1CCCNC1=O				<0.0005 µM
COc1c(O)cc([C@H]2Oc3cc(O)cc(O[C@@H]4O[C@H](CO)[C@@H](O)[C@H](O)[C@H]4O)c3C[C@H]2O)cc1O	IIIB		HPLC	<100 µg/mL
O=C(NC(CO)NC(=O)[C@@H]1Cc2ccccc2CN1C(=O)OCC1c2ccccc2-c2ccccc21)[C@@H]1Cc2ccccc2CN1C(=O)OCC1c2ccccc2-c2ccccc21			substrate cleavage	0.385 µM
CC[C@@H](C)[C@H](NC(=O)[C@@H]1CCCN1C(=O)[C@@H](O)[C@H](CC1CCCCC1)NC(=O)[C@H](CC(N)=O)NC(=O)[C@H]1Cc2ccccc2CN1)C(=O)N[C@H](C(N)=O)C(C)C				<5 µM
CC(C)[C@@H]1NC(=O)[C@@H](NC(=O)OCc2ccccc2)CCC(=O)Nc2cccc(c2)C[C@@H]([C@@H](O)[C@H](O)[C@@H]2Cc3cccc(c3)NC(=O)CC[C@H](NC(=O)OCc3ccccc3)C(=O)N[C@@H](C(C)C)C(=O)N2)NC1=O			fluorescence	0.389 µM
COc1cc(O)cc2c1C[C@@H](O)[C@@H](c1cc(O)c(OC)c(O)c1)O2	IIIB		HPLC	>100 µg/mL